In US4129577A (priority 1977, dated 1978) one finds vomiting data, which are given here for two substances.

The subject of the data set is pigeons. Briefly: Vomiting in pigeons (oral TD50).

Consider “3-hydroxy-4,15-diacetoxy-8-(3-methyl butyryloxy)-12,13-epoxy-Δ^9 -trichothecene”, for which the vomiting result is recorded as “cause vomiting”. Take “3-hydroxy-4,15-diacetoxy-12,13-epoxy-Δ^9 -trichothecene”: the vomiting entry is on record as “cause vomiting”.
